Data taken from paper PMC6200926 (The Journal of Biological Chemistry, 2018).

Molecular target: A/Vietnam/1203/2004 H5N1 HA globular head (D55-E271), wild type (Influenza A virus A/Vietnam/1203/2004 …, strain)

B1: FLD21.140 (full-length human IgG1) (antibody, V domains shown)
VH: QVQLQESGPGLVKPSQTLSLTCTVSGGSISSGTYYWSWIRHHPGKGLEWIGYIYHSGSAYYNPSLESRVTMSVDTSKNQFSLKLSSVTAADTAIYYCARAENLLSPYLAEGFDPWGQGTLVTVSS
VL: QSVLTQPPSASGTPGQRVTISCSGSTSNIGSNAVNWYQQLPGTAPKLLIYSNNQRPSGVPDRFSGSKSGTSASLAISGLQSEDEADYYCAAWDDSLSGSWVFGGGTKLTVL
B1 was tested, and the Kd was 0.0821 nM.
